Measured values from paper PMC12066687 (Frontiers in Immunology, 2025).
Some results come without the dose or concentration used.

Test system: VSV-EBOV-GP
Assay type: cell-based, Ebola virus (EBOV/H.sap-tc/COD/76/Yambuku-Mayinga)

CC/C(=C(\c1ccccc1)c1ccc(OCCN(C)C)cc1)c1cccc(NS(=O)(=O)NC2CCOC2)c1 (stereo not shown) [Compound 4]
increase in cellular antiviral potency compared to 1: ~2 fold
